In paper PMC7330483, “Identification of a Broad-Spectrum Viral Inhibitor Targeting a Novel Allosteric Site in the RNA-Dependent RNA Polymerases of Dengue Virus and Norovirus” (Frontiers in Microbiology, 2020):

Test system: hNV-RdRp
Assay: hNV-RdRp inhibition assay (PicoGreen dsRNA formation)
Format: biochemical, Norovirus GII.4 Sydney 2012
Conditions: dose response

First: O=c1[nH]c2ccccc2n1C1CCN(Cc2ccc(-c3nc4cc5[nH]cnc5cc4nc3-c3ccccc3)cc2)CC1 [RAI-5, AKT inhibitor VIII]
Second: CN1CCN(c2ccc(C(=O)Nc3n[nH]c4ccc(Cc5cc(F)cc(F)c5)cc34)c(NC3CCOCC3)c2)CC1 [RAI-13, Entrectinib]
The “hill slope of hNV RdRp inhibition” value of the first is lower: 1.19 for the first, 2.94 for the second.

In the case of `Cc1ccc(NC(=O)Nc2cc(C(F)(F)F)ccc2F)cc1Nc1ccc2c(c1)NC(=O)/C2=C\c1ccc[nH]1` [RAI-14, GNF-5837], the “hill slope of hNV RdRp inhibition” value is reported as 1.88.
